Pooled drug test results. Numbers come from NIAID ChemDB, via PubChem.

All rows: growth or infection tests; species: HIV-1

Neighbouring rows are from separate reports.

SMILES | read by | mutations | endpoint | strain or isolate | cells | result
CN=C1CN=C(c2ccc[nH]2)c2cc(Cl)ccc2N1 | p24 |  | EC50 | RF | C8166 | 0.7 µM
O=C1O[C@H]2[C@@H]3OC(=O)c4cc(O)c(O)c(O)c4-c4c(cc(O)c(O)c4O)C(=O)OC[C@H]2O[C@@H](OC(=O)c2cc(O)c(O)c(O)c2)[C@@H]3OC(=O)c2cc(O)c(O)c3c2[C@@H]2C1=CC(=O)[C@](O)(O3)C2(O)O | cytopathic effect / MTT |  | EC50 | IIIB | MT-4 | >25 µg/mL
CCCCCCCCCCCCCC(=O)OC[C@H](COP(=O)(O)OP(=O)(O)OC[C@@H]1CC[C@H](n2cc(C)c(=O)[nH]c2=O)O1)OC(=O)CCCCCCCCCCCCC | p24 |  | EC50 | BRU | CEM | 1.6 µM
CC(C)(c1ncc(-c2ccc(Cl)cc2)o1)N1CCN(C[C@@H](O)C[C@@H](Cc2nnc(-c3ccccc3)o2)C(=O)N[C@H]2c3ccccc3OC[C@H]2O)[C@H](C(=O)NCC(F)(F)F)C1 | p24 | PR-L10I N37S R41K M46I I54V I62V L63P A71V V77I V82A L90M I93L | EC95 | Q-60 Clinical isolate | MT-4 | 0.016 µM
Cc1cn([C@H]2CC[C@@H](CO)O2)c(=O)[nH]c1=O | plaque count |  | EC50 | A012B Clinical isolate | HT4 + HT4-6C | 200 µM
CC(C)(c1ncc(-c2ccc(F)cc2)o1)N1CCN(C[C@@H](O)C[C@@H](Cc2nnco2)C(=O)N[C@H]2c3ccccc3OC[C@H]2O)[C@H](C(=O)NCC(F)(F)F)C1 | p24 | PR-L10I N37S R41K M46I I54V I62V L63P A71V V77I V82A L90M I93L | EC50 | Q-60 Clinical isolate | MT-4 | <0.031 µM
COc1ccc(S(=O)(=O)N(CC(C)C)C[C@@H](O)[C@H](Cc2ccc(OC)c(Cl)c2)NC(=O)O[C@H]2CO[C@H]3OCC[C@H]32)cc1 | p24 / luminescence | L10F M46I I54V V82A | EC50 | NL4-3 | MT-4 | 0.0023 µM
COc1cc(C(c2ccc(O)c(OC)c2)C(C(=O)O)C(CO)CO)ccc1O | MTT |  | EC50 | IIIB | C8166 | 3.47 µg/mL
CCCCN(CC)C(=O)Oc1nsnc1-c1c(Cl)cccc1Cl | cytopathic effect |  | EC50 | IIIB | MT-4 | 0.335 µM
Cc1cn([C@H]2C[C@H](N=[N+]=[N-])[C@@H](CO)O2)c(=O)[nH]c1=O | β-galactosidase | K103N (NVP) | EC50 | NL4.3-XCS | HeLa CD4 | 0.063 µM
Cc1cn([C@H]2C[C@H](N=[N+]=[N-])[C@@H](CO)O2)c(=O)[nH]c1=O | p24 |  | EC50 | 7076 CLADE D CLADE D | PBMC | 0.046 µM
COc1cncc(-c2cnc(C(C)(C)N3CCN(C[C@@H](O)C[C@@H](Cc4nnc(C)o4)C(=O)N[C@H]4c5ccccc5OC[C@H]4O)[C@H](C(=O)NCC(F)(F)F)C3)o2)c1 | p24 |  | EC95 | NL4-3 WT | MT-4 | >1 µM
CCCCNC(=O)Oc1nsnc1-c1c(Cl)cccc1Cl | cytopathic effect |  | EC50 | IIIB | MT-4 | >129 µM
O=C1N(Cc2cccnc2)[C@H](Cc2ccccc2)[C@H](O)[C@@H](O)[C@@H](Cc2ccccc2)N1Cc1cccc(-c2ccn[nH]2)c1 |  |  | EC90 | RF | MT-2 | 0.094 µM
O=c1[nH]cnc2c1ncn2[C@H]1CC[C@@H](CO)O1 | p24 |  | EC50 | NL4-3 WT | PBMC | <18 µM
CCOCn1c(Cc2ccccc2)c(C(C)C)c(=O)[nH]c1=O | cytopathic effect / MTT | RT-Y181C | EC50 | HXB2 |  | 3.8 µM
COC(=O)c1cc(O)c(O)c(O)c1 | cytopathic effect / MTT |  | EC50 | IIIB | MT-4 | >12.5 µg/mL
Nc1ccn([C@H]2CC[C@@H](CO)O2)c(=O)n1 | p24 / ELISA |  | EC50 | HXB2 | MT-2 | 0.07 µM
O=C(O[C@@H]1Cc2c(O)cc(O)cc2O[C@@H]1c1ccc(O)c(O)c1)c1cc(O)c(O)c(O)c1 | cytopathic effect / MTT |  | EC50 | IIIB | MT-4 | >50 µg/mL
Nc1nc(N)c2ncn([C@H]3CO[C@@H](CO)O3)c2n1 |  |  | EC50 | IIIB | CBMC | 0.9 µM
O=C1N(Cc2cccc(-c3cnc[nH]3)c2)[C@H](Cc2ccccc2)[C@H](O)[C@@H](O)[C@@H](Cc2ccccc2)N1Cc1cccc(-c2cnc[nH]2)c1 |  |  | EC50 | RF | MT-2 | <0.084 µM
O=C(N[C@H]1c2ccccc2OC[C@H]1O)[C@H](Cc1nnco1)C[C@H](O)CN1CCN(Cc2ccc(-c3ccc(Cl)cc3)o2)C[C@H]1C(=O)NCC(F)(F)F | p24 |  | EC95 | NL4-3 WT | MT-4 | 0.063 µM
COc1ccc(NC(=O)CSc2nnnn2-c2c(C)cc(C)cc2C)cc1Cl | β-galactosidase | K103N (NVP) | EC50 | NL4.3-XCS | HeLa CD4 | 1.043 µM
O=c1[nH]cnc2c1ncn2[C@H]1CC[C@@H](CO)O1 | p24 |  | EC50 | RF | C8166 | >21 µM
C=C(C)[C@@H]1CC[C@]2(NCC[C@]3(O)CCC[C@H](S(C)(=O)=O)C3)CC[C@]3(C)[C@H](CC[C@@H]4[C@@]5(C)CC=C(C6=CC[C@](CF)(C(=O)O)CC6)C(C)(C)[C@@H]5CC[C@]43C)[C@@H]12 | luciferase | A364V | EC50 | NL4-3 | MT-2 | >0.05 µM
O=c1[nH]cnc2c1ncn2[C@H]1CC[C@@H](CO)O1 | p24 / ELISA | RT-K65R | EC50 | HxB2-MT 65 (RT-K65R | MT-2 | 4.3 µM
COC(=O)N[C@H](C(=O)N[C@@H](Cc1ccccc1)[C@@H](O)CN(Cc1ccc(-c2ccccn2)cc1)NC(=O)[C@@H](NC(=O)OC)C(C)(C)C)C(C)(C)C | virus yield / flow cytometry | 8374-P47 GS-8374-resistant | EC50 | IIIB | MT-2 | 0.0165 µM
Cc1cn([C@H]2C[C@H](N=[N+]=[N-])[C@@H](CO)O2)c(=O)[nH]c1=O | p24 |  | EC50 | ddI-resistant | PBL | 0.001 µM
CC/C(=N\O)c1cccc(CN2C(=O)N(Cc3cccc(/C(CC)=N/O)c3)[C@H](Cc3ccccc3)[C@H](O)[C@@H](O)[C@H]2Cc2ccccc2)c1 |  |  | EC50 | RF | MT-2 | <0.007 µM
Cc1ccc(S(=O)(=O)N(CC(C)C)C[C@@H](O)[C@H](Cc2ccccc2)NC(=O)O[C@H]2CO[C@H]3OCC[C@H]32)cc1 | p24 / ELISA | I401T | EC50 | IIIB | MT-2 | 0.008 µM
O=c1[nH]cnc2c1ncn2[C@@H]1O[C@H](CO)C[C@@H]1F | thymidine uptake |  | EC50 |  | ATH8 | 5 µM
CCCc1nnc(C[C@H](C[C@H](O)CN2CCN(C(C)(C)c3ncc(-c4cncc(OC)c4)o3)C[C@H]2C(=O)NCC(F)(F)F)C(=O)N[C@H]2c3ccccc3OC[C@H]2O)o1 | p24 |  | EC50 | NL4-3 WT | MT-4 | <0.5 µM
c1ccc(CNc2nc(-c3cccnc3)cs2)cc1 | β-galactosidase | WT | EC50 | NL4-3 | HeLa CD4 | 0.801 µM
CCCN(C)C(=O)Oc1nsnc1-c1c(Cl)cccc1Cl | cytopathic effect |  | EC50 | IIIB | MT-4 | 0.0125 µM
CCCc1nnc(C[C@H](C[C@H](O)CN2CCN(Cc3ccc(-c4ccc(Cl)cc4)o3)C[C@H]2C(=O)NCC(F)(F)F)C(=O)N[C@H]2c3ccccc3OC[C@H]2O)o1 | p24 | PR-L10I N37S R41K M46I I54V I62V L63P A71V V77I V82A L90M I93L | EC95 | Q-60 Clinical isolate | MT-4 | 0.016 µM
Cc1ccc(-n2nnnc2-c2cn[nH]c2-c2cccc(F)c2)cc1 | β-galactosidase | M184V (3TC-resistant) | EC50 | NL4.3-XCS | HeLa CD4 | 0.666 µM
Cc1cn([C@H]2C[C@H](N=[N+]=[N-])[C@@H](CO)O2)c(=O)[nH]c1=O | p24 |  | EC50 | NL-XM WT | MT-4 | <0.02 µM
CCc1cc(NCc2nc3c(Cl)ccc(Cl)c3o2)c(=O)[nH]c1C | antigen | RT-P236L | EC50 | HXBE30(RT-P236L) | MT-4 | <0.01 µM
CCCc1nnc(C[C@H](C[C@H](O)CN2CCN(C(C)(C)c3ncc(-c4ccc(Cl)cc4)o3)C[C@H]2C(=O)NCC(F)(F)F)C(=O)N[C@H]2c3ccccc3OC[C@H]2O)o1 | p24 |  | EC50 | NL4-3 WT | MT-4 | <0.008 µM
O=C(O)C[C@@H]1C(=O)O[C@H]2[C@@H]3OC(=O)c4cc(O)c(O)c(O)c4-c4c(cc(O)c(O)c4O)C(=O)OC[C@H]2O[C@@H](OC(=O)c2cc(O)c(O)c(O)c2)[C@@H]3OC(=O)c2cc(O)c(O)c3c2[C@H]1[C@H](O)C(=O)O3 | cytopathic effect / MTT |  | EC50 | IIIB | MT-4 | >25 µg/mL
COC(=O)N[C@H](C(=O)N[C@@H](Cc1ccccc1)[C@@H](O)CN(Cc1ccc(-c2ccccn2)cc1)NC(=O)[C@@H](NC(=O)OC)C(C)(C)C)C(C)(C)C | p24 / luminescence |  | EC50 | NL4-3 | MT-4 | 0.002 µM
Nc1ccn([C@@H]2C[Se][C@H](CO)O2)c(=O)n1 | RT activity |  | EC50 | BRU | PBMC | 0.11 µM
O=C1N(Cc2ccc(O)cc2)[C@H](Cc2ccccc2)[C@H](O)[C@@H](O)[C@@H](Cc2ccccc2)N1Cc1cccc(-c2ccn[nH]2)c1 |  |  | EC50 | RF | MT-2 | <0.03 µM
CCOP(=O)(COc1ccc(C[C@H](NC(=O)O[C@H]2CO[C@H]3OCC[C@H]32)[C@H](O)CN(CC(C)C)S(=O)(=O)c2ccc(OC)cc2)cc1)OCC | p24 / ELISA | L441P | EC50 | IIIB | MT-2 | 0.008 µM
Cc1cn([C@H]2C[C@H](N=[N+]=[N-])[C@@H](CO)O2)c(=O)[nH]c1=O | cytopathic effect / MTT | AMD3100-resistant | EC50 | NL4-3 | MT-4 | 0.005 µg/mL
CC(C)=CCOCn1c(Cc2cc(C)cc(C)c2)c(C(C)C)c(=O)[nH]c1=O | cytopathic effect / MTT |  | EC50 | IIIB | MT-4 | 0.00015 µM

For reference, 3 entries again:

SMILES,read by,mutations,endpoint,strain or isolate,cells,result
CCc1cc(NCc2nc3c(Cl)ccc(Cl)c3o2)c(=O)[nH]c1C,antigen,RT-P236L,EC50,HXBE30(RT-P236L),MT-4,<0.01 µM
CCCc1nnc(C[C@H](C[C@H](O)CN2CCN(Cc3ccc(-c4ccc(Cl)cc4)o3)C[C@H]2C(=O)NCC(F)(F)F)C(=O)N[C@H]2c3ccccc3OC[C@H]2O)o1,p24,PR-L10I N37S R41K M46I I54V I62V L63P A71V V77I V82A L90M I93L,EC95,Q-60 Clinical isolate,MT-4,0.016 µM
O=c1[nH]cnc2c1ncn2[C@@H]1O[C@H](CO)C[C@@H]1F,thymidine uptake,,EC50,,ATH8,5 µM

ECn is the concentration giving n% inhibition of infection, replication or growth. An empty or dashed field is not shown.